## Primary screen of a compound library

The values are deposited in ChEMBL (CHEMBL3988442, “University of Dundee, Small-Polar-MMV Screening Library” (2021)).

Mtb cholesterol medium: 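Whole-cell growth test on Mycobacterium tuberculosis, read after 4 days in a medium based on cholesterol and the lipid DPPC; the read-out is not stated. Concentration: 500 µM. The record gives no direction; compounds that gave an IC50 in retests scored well above the rest, so higher reads as more growth inhibition. Size under these conditions: about 18,000 compounds, about 900 of them at 50% or above in at least one test.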
Mtb glucose medium: 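Growth of Mycobacterium tuberculosis over 3 days (7H9 medium with glucose and tyloxapol); the read-out is not stated. Tested at 500 µM. Direction is inferred from retests: higher values go with more growth inhibition. Of about 18,000 compounds tested this way, about 1,400 (7.9%) reached 50% or more in at least one test.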

Results are given as percent effect.
The record does not define 0% and 100%; most values in the screen are far below 50% and negative numbers occur (in some assays of this library far below -100).
This is part of a subset picked to be rich in strong results.
A dash means the value is not listed here; it may have been measured.

Cc1cc(NC(=O)Cc2ccc3c(c2)OCCO3)no1 read Mtb cholesterol medium: 34.03%; Mtb glucose medium: 53.28%.
O=C(CCN1CCC(O)(CO)C1)Nc1cccc(Cl)c1 (stereo unspecified) read Mtb glucose medium: 25.46%.
COCCNC(=O)NCCN1CCc2sccc2C1 read Mtb glucose medium: 3.867%.
CCCN1CCC(NC(=O)NCC(O)C2CC2)CC1 (stereo unspecified) read Mtb glucose medium: -5.475%.
NCc1ncn(-c2ccccc2)n1 read Mtb cholesterol medium: 6.51%.
CNC(=O)CSc1nc2cc(F)c(F)cc2[nH]1 read Mtb cholesterol medium: -2.249%; Mtb glucose medium: 22.13%.
CN1C[C@@H]2CN(C(=O)CCc3cccnc3)C[C@@H]2C1 read Mtb cholesterol medium: 7.124%; Mtb glucose medium: -1.379%.
COCCN(Cc1cccs1)C(=O)CC1CCNC1 (stereo unspecified) read Mtb glucose medium: 65.72%.
COc1ccc(NC(=O)CCN2CCCSCC2)cc1 read Mtb cholesterol medium: 13.84%.
CNC1(CO)Cc2ccccc2C1 read Mtb glucose medium: 18.07%.
O=C(Cc1ccccn1)N[C@@H]1COCC[C@H]1O read Mtb glucose medium: 5.085%.
N#Cc1ccc(CCO)cc1 read Mtb glucose medium: 14.92%.
CC(C)CSc1nnc(CN2CCCC2=O)o1 read Mtb cholesterol medium: 33.06%; Mtb glucose medium: 37.56%.
CCN1CC(C(=O)N2CCOC3(CCCC3)C2)CC1=O (stereo unspecified) read Mtb glucose medium: 0.8515%.
N#Cc1cc(Br)cc(S(=O)(=O)NCCCN)c1 read Mtb glucose medium: 50.83%.
COCCN1CCN(CCCN2CCCC2=O)CC1 read Mtb glucose medium: -9.08%.
CN(C)Cc1ccc(C(=O)NCC2(C)COC2)cc1 read Mtb cholesterol medium: 10.33%.
CCCS(=O)(=O)N1C[C@H](c2ccc(OC)cc2)[C@@H](N)C1 read Mtb cholesterol medium: 17.52%.
Cc1cccc2[nH]c(CN)nc12 read Mtb cholesterol medium: 36.26%; Mtb glucose medium: 48%.
Cn1cc(CNC(=O)c2cccc(I)c2)cn1 read Mtb cholesterol medium: 31.85%; Mtb glucose medium: 56.39%.
COc1ccccc1OCC(=O)NC(C)CCN(C)C (stereo unspecified) read Mtb glucose medium: 12.74%.
c1ccc(C2=NN=C(NC3CC3)SC2)cc1 read Mtb cholesterol medium: 61.78%; Mtb glucose medium: 67.67%.
CN(CC1CC1)c1ccc(S(C)(=O)=O)cc1S(C)(=O)=O read Mtb cholesterol medium: -10.06%.
O=C(c1ccc2c(c1)OCCO2)C1CCNCC1 read Mtb cholesterol medium: 21.07%.

The first 2 entries again:

| SMILES | Mtb cholesterol medium | Mtb glucose medium |
|---|---|---|
| `Cc1cc(NC(=O)Cc2ccc3c(c2)OCCO3)no1` | 34.03% | 53.28% |
| `O=C(CCN1CCC(O)(CO)C1)Nc1cccc(Cl)c1` (stereo unspecified) | - | 25.46% |